Source: PubChem BioAssay AID488895 (Broad Institute, 2010)
Only a part is listed here, and it is no random draw. Activity calls are given as the source filed them.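 Rule for the calls: active = mean replicate inhibition at least 50% and at least half of replicates individually reaching 50%; inconclusive = only one of the two criteria met; inactive = neither criterion met.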

experiment: E. coli Tat export inhibitors, primary screen, MC4100, TorA-mCherry reporter, fluorescence, single point (AID 488895); conditions: at 10 µM, stronger effect = higher value;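 note: exported cargo escapes ClpAP degradation while cytoplasmic cargo is degraded and loses fluorescence; 0% = median of neutral control wells and 100% = median of NaSCN control wells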

SMILES | inhibition
O=C(NC1CCS(=O)(=O)C1)NP(=S)(Oc1ccccc1)Oc1ccccc1 (configuration not stated) | inactive: 0.201%
CCNC(=S)/N=C(\N)N[N+](=O)[O-] | inactive: -7.96%
O=c1c2cc([N+](=O)[O-])ccc2[nH]c2c([N+](=O)[O-])cc([N+](=O)[O-])cc12 | inactive: -1.27%
CN(C)C(=O)Oc1noc2ccccc12 | inactive: 0.751%
CC(NC(=O)COC(=O)C(O)(c1ccccc1)c1ccccc1)c1ccccc1 (configuration not stated) | inactive: 10.3%
Cc1ccccc1OP(=O)(Nc1ccccn1)Oc1ccccc1C | inactive: 17.4%
CCC(=O)N1C2C3N(C(=O)CC)C1C1N(C(=O)CC)C(C(N1C(=O)CC)N3C(=O)CC)N2C(=O)CC | inactive: 0.618%
O=C(OC1CN2CCC1CC2)c1ccccc1 (configuration not stated) | inactive: 7.11%
Cc1ccc(OP(=O)(Nc2ccccn2)Oc2ccc(C)cc2)cc1 | inactive: 0.649%
CC(=O)NC(SC(=S)N(CC(C)C)CC(C)C)C(Cl)(Cl)Cl (configuration not stated) | inactive: -9.74%
COC(=O)c1cc2c(s1)N=C(c1ccccc1)N(C)P2(=O)N1CCOCC1 (configuration not stated) | inactive: 1.34%
CC(C)(C)C(=O)NC(Sc1ccccc1)C(Cl)(Cl)Cl (configuration not stated) | inactive: -1.73%
CCc1cc(O)c([N+](=O)[O-])c(C)c1[N+](=O)[O-] | inactive: 8.14%
CCOc1ccc(C2=NCC(CBr)S2)cc1 (configuration not stated) | inactive: -4%
O=P1(Nc2nc3ccc(Cl)cc3s2)COc2ccccc2O1 (configuration not stated) | inactive: 2.27%
CC(=O)Nc1ccc(Oc2c([N+](=O)[O-])cc([N+](=O)[O-])cc2[N+](=O)[O-])cc1 | inactive: 3.17%
CC(=O)Nc1ccc([As](=O)(O)O)c(O)c1 | inactive: -0.454%
C[C@H]1OP(=O)(Oc2ccccc2)C[C@@H]2O[C@@H]21 (some centres not stated) | inactive: -10.2%
C[C@@H]1C=CCP(=O)(Oc2ccccc2)O1 (some centres not stated) | inactive: -0.0297%
Cc1ccccc1CN(C)C(=O)COC(=O)C(O)(c1ccccc1)c1ccccc1 | inactive: -1.68%
COC(=O)C1(C)COP(=O)(NCc2ccccc2)OC1 (configuration not stated) | inactive: 1.53%

SMILES | inhibition
CC(=O)c1ccc(N2CC2c2ccncc2)cc1 (configuration not stated) | inactive: -1.89%
N#C/C(=C\c1ccc(N(CCBr)CCBr)cc1)C(N)=O | inactive: -4.8%
CN1CCCC(OC(=O)C(c2ccccc2)c2ccccc2)C1 (configuration not stated) | inactive: 4.64%
Clc1ccc(Cl)c(NC2=NCC(CBr)S2)c1 (configuration not stated) | inactive: 2.72%
COc1ccccc1OP(=O)(Nc1ccc(C)cn1)Oc1ccccc1OC | inactive: -4.16%
Cc1ccc(N/C(=N/P(=O)(N2CCOCC2)N2CCOCC2)N2CCOCC2)cc1 | inactive: 19.7%
CN(C(=O)Cc1ccc(Cl)c(Cl)c1)[C@H]1CCCC[C@H]1N1CCCC1 | inactive: -0.531%
NC(=O)c1cc([N+](=O)[O-])cc([N+](=O)[O-])c1N | inactive: 2.5%
O=C(NC(Sc1ccncn1)C(Cl)(Cl)Cl)c1ccccc1 (configuration not stated) | inactive: 3.05%
Oc1ccccc1CNc1ccccn1 | inactive: 2.02%
Nc1cc(N)c2nonc2c1[N+](=O)[O-] | inactive: 3.26%
CC(C)CC(=O)NC(Sc1ccc(Cl)cc1)C(Cl)(Cl)Cl (configuration not stated) | inactive: 3.14%
CN(C(=O)Cc1ccc(Cl)c(Cl)c1)[C@H]1CCCC[C@@H]1N1CCCC1 | inactive: 8.77%
Cc1ccc(NP(=O)(Oc2ccccc2F)Oc2ccccc2F)nc1 | inactive: -4.37%
Cc1cc(SC(NC(=O)c2ccc(F)cc2)C(Cl)(Cl)Cl)ncn1 (configuration not stated) | inactive: -1.34%
CCOP(=O)(Nc1ccccc1)OCC | inactive: -9.79%
O=P(Nc1nc2ccc(Cl)cc2s1)(c1ccccc1)c1ccccc1 | inactive: 3.49%
CCCC1OP(N)(=O)OCC1CC (configuration not stated) | inactive: -4.06%
CC(=O)Nc1ccc([As](=O)(O)O)cc1 | inactive: -5.36%
O=C(O)c1ccccc1[As](=O)(O)O | inactive: 7.99%
Nc1cccc2ccc([As](=O)(O)O)cc12 | inactive: -8.02%

SMILES | inhibition
CCN(N=Nc1nonc1N)c1nonc1N | inactive: -2.43%
O=C(Nc1cc([As](=O)(O)O)ccc1O)c1ccccc1 | inactive: -4.69%
O=P1(N(CCCl)CCCl)OCCCS1 (configuration not stated) | inactive: 3.53%
O=C(O)CNc1ccc([As](=O)(O)O)cc1 | inactive: -6.18%
COC(=O)C1(C)COP(=O)(Nc2ccccc2)OC1 (configuration not stated) | inactive: -3.38%
O=[N+]([O-])c1cccc(NC2=NCC(CBr)S2)c1 (configuration not stated) | inactive: 4.34%
O=[N+]([O-])c1ncn(CCn2ncnc2[N+](=O)[O-])n1 | inactive: -6.79%
CC(C)(C)C(=O)NC(Sc1ccncn1)C(Cl)(Cl)Cl (configuration not stated) | inactive: -0.815%
O=[N+]([O-])c1cc([N+](=O)[O-])c(CCNc2ccccc2)c([N+](=O)[O-])c1 | inactive: -2.49%
CCc1nc2c(n1)c1c(non1O)c1c2no[n+]1[O-] | inactive: -3.85%
Cc1ccc(NP(=O)(Oc2ccccc2)Oc2ccccc2)nc1 | inactive: 2.41%
CC(=O)N1C2C3N(C(C)=O)C1C1N(C(C)=O)C(C(N1C(C)=O)N3C(C)=O)N2C(C)=O | inactive: -2.51%
O=[N+]([O-])c1cccc2n[nH]nc12 | inactive: -8.39%
COc1ccc(C2=NCC(CBr)S2)cc1 (configuration not stated) | inactive: -0.41%
CC1CCN(C(=O)Oc2c(Cl)cc(Cl)c3cccnc23)CC1 | inactive: 5.72%
CN(C)C(=O)OCCc1n(C)cc[n+]1C | inactive: 5.88%
CC(C)=N/N=C(\N)N[N+](=O)[O-] | inactive: -6.79%
CCN(/C(=N/P(=O)(N1CCOCC1)N1CCOCC1)N1CCOCC1)c1ccc(OC)cc1 | inactive: -10.2%
C[N+]1=C2C=CC=CC=C2SC12C([N+](=O)[O-])=CC([N+](=O)[O-])=C[C-]2[N+](=O)[O-] (configuration not stated) | inactive: -2.82%
Nc1ccc([As](=O)(O)c2ccc(N)cc2)cc1 | inactive: 1.23%
